Data source: PubChem BioAssay AID624099 (ICCB-Longwood, 2012)
This is one part, drawn at random, of about 21,000 reagents tested. 497 of all reagents (2.4%) count as active. 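Higher z means weaker E2 silencing; only reporter increases were scored, and knock-downs that hurt cell survival may mask genuine repressor factors.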 Reagents against one gene are numbered here.

- Screen: 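Human genes that papillomavirus E2 requires to repress the HPV18 LCR promoter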 (primary screen)
- Cell system: human C33A cervical carcinoma cells (HPV-negative) stably expressing BPV1 E2 and an HPV18 LCR luciferase reporter
- Reagent: siRNA pool against human genes, 40 nM
- Time to read-out: 72 h
- Measured: 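Per-well luciferase luminescence, z-scored on each plate against the plate mean and SD with control wells left out, then averaged across three replicate plates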
- Reading the numbers: mean z-score and z-score: higher = stronger reporter signal, weaker E2 silencing
- Hit rule: 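Mean z ≥ 2 together with z ≥ 2 in two or more of the three replicates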

gene knocked down	reagent	mean z-score	z-score, replicate A	z-score, replicate B	z-score, replicate C	Call
EBP	1	-0.72	-0.78	-0.65	-0.73	inactive
WDR70	1	0.32	0.84	0.28	-0.17	inactive
PJA1	1	1.24	1.25	1.42	1.05	inactive
BTBD16	1	-0.46	-0.11	-0.95	-0.33	inactive
SKIC3	1	-0.79	-0.67	-0.91	-0.81	inactive
PTX4	1	-0.33	-0.44	-0.04	-0.51	inactive
FLJ40288	1	0.81	0.82	0.8	0.79	inactive
NRARP	1	-2.84	-3.26	-2.81	-2.45	inactive
MRPS10	1	-0.06	-0.07	-0.28	0.18	inactive
MAP3K6	1	0.36	0.19	0.34	0.54	inactive
NONO	1	0.02	0.29	-0.2	-0.04	inactive
CSH2	1	-1.23	-0.95	-1.72	-1.03	inactive
HCCS	1	-0.57	-0.66	-0.53	-0.53	inactive
MDK	1	-0.57	-0.76	-0.48	-0.47	inactive
PHLDA3	1	-1.7	-1.97	-1.49	-1.64	inactive
NKX6-3	1	-0.91	-0.88	-0.97	-0.89	inactive
PARN	1	-0.22	-0.33	-0.34	0.01	inactive
RTL9	1	1.06	0.83	0.96	1.4	inactive
HCRTR2	1	1.05	1	1.29	0.86	inactive
FOXR1	1	-0.45	-0.88	0.05	-0.51	inactive
SMG6	1	-1.58	-2.04	-1.33	-1.38	inactive
ID2	1	0.16	0.13	0.07	0.28	inactive
KCNH2	1	0.71	0.88	0.68	0.58	inactive
BZW1	1	-0.02	-0.12	-0.09	0.16	inactive
SLC22A9	1	1.1	1.01	0.98	1.31	inactive
A4GALT	1	0.88	1.16	0.48	0.99	inactive
GYPE	1	0.13	0.07	0	0.31	inactive
CMSS1	1	0.31	0.19	0.09	0.65	inactive
NINL	1	1.78	1.85	1.65	1.85	inactive
KCTD20	1	-0.34	-0.39	-0.28	-0.16	inactive
LILRB3	1	-0.06	-0.1	-0.21	0.12	inactive
CCDC28A	1	0.47	0.05	0.46	0.91	inactive
RNF115	1	-0.25	-0.44	-0.2	-0.12	inactive
HGFAC	1	-0.31	-0.41	-0.23	-0.28	inactive
LINC00906	1	-0.01	0.08	0.27	-0.37	inactive
SMIM8	1	-1.82	-1.78	-1.83	-1.85	inactive
CRISP1	1	-0.15	-0.17	-0.19	-0.09	inactive
RPS25P6	1	-0.55	-0.78	-0.63	-0.25	inactive
OLFML2A	1	-2.31	-2.15	-2.57	-2.19	inactive
SYDE1	1	0.23	0.34	0.35	-0.01	inactive
FBLN5	1	0.48	0.3	0.54	0.61	inactive
CCSER1	1	-0.85	-1.02	-1	-0.53	inactive
CCSER1	2	-0.52	-0.61	-0.42	-0.53	inactive
CUL1	1	0.52	0.53	0.28	0.74	inactive
PRECSIT	1	1.48	1.34	1.87	1.22	inactive
DPP10-AS1	1	1.6	1.48	1.63	1.68	inactive
PCYT1A	1	0.71	0.55	0.74	0.84	inactive
NUCKS1	1	0.9	1.12	0.97	0.62	inactive
TSG101	1	1.52	1.4	1.74	1.43	inactive
ZNF189	1	-1.2	-1.22	-1.17	-1.22	inactive
TMEM200A	1	-1.75	-2.06	-1.76	-1.43	inactive
LRG1	1	2.19	2.26	1.92	2.38	active
PSAT1	1	-1.23	-1.31	-1.68	-0.71	inactive
NUP85	1	1.12	0.69	1.55		inactive
PRRT1	1	1.03	1.11	0.73	1.24	inactive
KIF9	1	0.39	0.58	0.08	0.51	inactive
NANP	1	0.5	0.24	0.47	0.78	inactive
FAM227A	1	-0.25	-0.3	-0.26	-0.2	inactive
XPO7	1	0.63	0.22	0.71	0.97	inactive
FAM185A	1	-1.86	-2.3	-1.83	-1.45	inactive
HP1BP3	1	0.27	-0.26	0.59	0.49	inactive
ARL3	1	1.64	1.82	1.54	1.56	inactive
LOC389188 (retired record)	1	-1.34	-1.14	-1.47	-1.4	inactive
MISO1	1	-0.42	-0.41	-0.48	-0.36	inactive
ULBP2	1	-0.75	-0.8	-0.96	-0.48	inactive
LOC285307 (retired record)	1	-1.58	-1.59	-1.23	-1.92	inactive
IFRD1	1	0.65	0.6	0.82	0.53	inactive
SRSF2	1	0.02	-0.14	0.21	0.01	inactive
JUNB	1	-1.77	-1.96	-1.65	-1.72	inactive
RALGDS	1	0.43	0.42	0.47	0.4	inactive
LSR	1	-2.01	-2.28	-1.86	-1.89	inactive
LINC00700	1	-1.18	-1.18	-1.08	-1.27	inactive
GRIN2A	1	-0.17	0.28	-0.44	-0.37	inactive
